# Reference: publication PMC7229144, “Tetracycline-inactivating enzymes from environmental, human commensal, and pathogenic bacteria cause broad-spectrum tetracycline resistance” (Communications Biology, 2020)
# Sequences of proteins named here, by UniProt entry; tags and fusion partners are left off. A change or cut given only in a name is not applied to a line headed by its entry.
# UniProt Q01911: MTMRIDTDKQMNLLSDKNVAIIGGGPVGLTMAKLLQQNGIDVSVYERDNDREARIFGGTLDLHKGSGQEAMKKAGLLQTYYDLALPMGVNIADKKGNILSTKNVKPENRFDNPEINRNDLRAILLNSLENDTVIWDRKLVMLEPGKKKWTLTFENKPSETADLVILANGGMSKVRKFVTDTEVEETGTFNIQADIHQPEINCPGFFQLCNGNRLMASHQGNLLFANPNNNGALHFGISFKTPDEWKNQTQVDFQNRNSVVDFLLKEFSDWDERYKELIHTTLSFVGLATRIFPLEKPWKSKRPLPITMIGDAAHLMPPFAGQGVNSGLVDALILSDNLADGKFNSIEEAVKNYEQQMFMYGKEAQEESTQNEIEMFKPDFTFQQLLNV
# Biological target: Tet(X) (Bacteroides fragilis, UniProt Q01911)
# Test: steady-state kinetics, absorbance
# Settings: read-out: Km (apparent); 0-40 µM substrate, 504 µM NADPH, 5.04 mM MgCl2, 0.4 µM enzyme, 100 mM TAPS pH 8.5, room temperature
smiles,measurement,value
CN(C)[C@@H]1C(=O)C(C(N)=O)=C(O)[C@@]2(O)C(=O)C3=C(O)c4c(O)c(NC(=O)CN5CCCC5)cc(F)c4C[C@H]3C[C@@H]12,Km,4 µM
